Measured values from several laboratories, pooled; numbers as filed in NIAID ChemDB.

All rows: tests in culture; species: Mycobacterium avium complex; measure: MIC

Lines come from different laboratories, so protocols vary.

SMILES | strain | value
CCCCCNC(=O)O[C@H]1C(O[C@@H]2[C@@H](C)[C@H](O[C@H]3C[C@@](C)(OC)[C@@H](OC(C)=O)[C@H](C)O3)[C@@H](C)C(=O)O[C@H](CC)[C@@](C)(O)[C@H](O)[C@@H](C)/C(=N/OCCCC3CCCCC3)[C@H](C)CC2(C)O)O[C@H](C)C[C@@H]1N(C)C | 20034 | 0.1 µg/mL
CCCCN(CCCC)C[C@@H](O)c1cc2c(Cl)cc(Cl)cc2c2cc(C(F)(F)F)ccc12 | 5 clinical isolates | 1–2 µg/mL
CCCCNC(=O)O[C@H]1C(O[C@@H]2[C@@H](C)[C@H](O[C@H]3C[C@@](C)(OC)[C@@H](OC(C)=O)[C@H](C)O3)[C@@H](C)C(=O)O[C@H](CC)[C@@](C)(O)[C@H](O)[C@@H](C)/C(=N/OCCCC3CCCCC3)[C@H](C)CC2(C)O)O[C@H](C)C[C@@H]1N(C)C | 20096 | 0.1 µg/mL
N#Cc1ccnc(SCc2ccc([N+](=O)[O-])cc2)c1 | MY330/88 | >1000 µM
CC(C)N=c1cc2n(-c3ccc(Cl)cc3)c3ccccc3nc-2cc1Nc1ccc(Cl)cc1 | 715 | 0.5 µg/mL
CCCCCCCCO[C@@H]1O[C@H]([C@@H](COCc2ccccc2)O[C@H]2O[C@H](CO)[C@@H](O)[C@@H]2O)[C@H](OCc2ccccc2)[C@H]1OCc1ccccc1 | NJ3404 | >128 µg/mL
Cc1ccc(CSc2ncccn2)cc1 | NJ211 | >12.8 µg/mL
CCc1nc(N)nc(N)c1-c1ccc(Cl)cc1 | DW5 | 32 µg/mL
CN[C@@H]1[C@H](O[C@H]2[C@H](O[C@H]3[C@H](O)[C@@H](O)[C@H](N=C(N)N)[C@@H](O)[C@@H]3N=C(N)N)O[C@@H](C)[C@]2(O)C=O)O[C@@H](CO)[C@H](O)[C@H]1O | CIPT 140310002 | 5 µg/mL
Cc1cccc(CSc2cc(C#N)ccn2)c1 | MY330/88 | 250 µM
CC[C@H]1OC(=O)[C@H](C)[C@@H](O[C@H]2C[C@@](C)(OC)[C@@H](O)[C@H](C)O2)[C@H](C)[C@@H](O[C@@H]2O[C@H](C)C[C@H](N(C)C)[C@H]2O)[C@](C)(OC)C[C@@H](C)C(=O)[C@H](C)[C@@H](O)[C@]1(C)O | N-92159 | 0.5 µg/mL
CCN=c1cc2n(-c3ccc(Cl)cc3)c3ccccc3nc-2cc1Nc1ccc(Cl)cc1 | 1625 | 0.25 µg/mL
CCNC(=O)[C@@H](NC(=O)Cc1ccccc1)[C@@H]1N[C@@H](C(=O)NCCNC(=O)[C@@H]2N[C@@H]([C@H](NC(=O)Cc3ccccc3)C(=O)NCC)SC2(C)C)C(C)(C)S1 | CIPT 140310006 | 25 µg/mL
CCCCCCCCCCCCCCN(C)C(=O)O[C@H]1C(O[C@@H]2[C@@H](C)[C@H](O[C@H]3C[C@@](C)(OC)[C@@H](OC(C)=O)[C@H](C)O3)[C@@H](C)C(=O)O[C@H](CC)[C@@](C)(O)[C@H](O)[C@@H](C)/C(=N/OCCCC3CCCCC3)[C@H](C)CC2(C)O)O[C@H](C)C[C@@H]1N(C)C | 20045 | 0.2 µg/mL
NC[C@H]1O[C@H](O[C@H]2[C@H](O)[C@@H](O[C@H]3O[C@H](CO)[C@@H](O)[C@H](N)[C@H]3O)[C@H](N)C[C@@H]2N)[C@H](O)[C@@H](O)[C@@H]1O | CIPT 140310003 (smooth) | 10 µg/mL
O[C@@H](c1cc2ccc(C(F)(F)F)cc2c2cc(C(F)(F)F)ccc12)[C@@H]1CCCCN1 | 101 (clarithromycin-resistant) | 2 µg/mL
CC[C@H]1OC(=O)[C@H](C)[C@@H](O[C@H]2C[C@@](C)(OC)[C@@H](OC(C)=O)[C@H](C)O2)[C@H](C)[C@@H](OC2O[C@H](C)C[C@H](N(C)C)[C@H]2OC(=O)NC)C(C)(O)C[C@@H](C)/C(=N\OCCCC2CCCCC2)[C@H](C)[C@@H](O)[C@]1(C)O | 20096 | 3.13 µg/mL
NC(=S)c1ccnc(SCc2ccc(F)cc2)c1 | MY330/88 | 31 µM
NNC(=O)c1ccncc1 | 900 | 2 µg/mL
CC(C)N=C(N)/N=C(\N)NOCCCOc1cc(Cl)c(Cl)cc1Cl | 101 | 32 µg/mL
COc1cc(CSc2nc(=O)[nH]c3nc[nH]c23)cc(OC)c1 | NJ211 | >12.8 µg/mL
Cc1cc(N=NC(N)=S)c2ccccc2c1O | 5 clinical isolates | >16 µg/mL
N#Cc1ccnc(SCc2ccc([N+](=O)[O-])cc2[N+](=O)[O-])c1 | MY330/88 | >1000 µM
CCCCCCCCO[C@@H]1O[C@H]([C@@H](COC)O[C@H]2O[C@H](CO)[C@@H](O)[C@@H]2O)[C@H](OC)[C@H]1OC | NJ168 | >128 µg/mL
O[C@@H](c1cc2ccc(C(F)(F)F)cc2c2cc(C(F)(F)F)ccc12)[C@H]1CCCCN1 | 5 clinical isolates | 1–2 µg/mL
NNC(=O)c1ccncc1 | 11012 | 20–25 µg/mL
Cc1ccc(Sc2ccncc2)cc1 | NJ211 | >12.8 µg/mL
CC[C@H]1OC(=O)[C@H](C)[C@@H](O[C@H]2C[C@@](C)(OC)[C@@H](OC(C)=O)[C@H](C)O2)[C@H](C)[C@@H](OC2O[C@H](C)C[C@H](N(C)C)[C@H]2OC(=O)NCC(=O)NC)C(C)(O)C[C@@H](C)/C(=N\OCCCC2CCCCC2)[C@H](C)[C@@H](O)[C@]1(C)O | 20045 | 0.78 µg/mL
CO[C@H]1/C=C/O[C@@]2(C)Oc3c(C)c(O)c4c(O)c(c5c(c4c3C2=O)NC2(CCN(CC(C)C)CC2)N=5)=NC(=O)/C(C)=C\C=C\[C@H](C)[C@H](O)[C@@H](C)[C@@H](O)[C@@H](C)[C@H](OC(C)=O)[C@@H]1C | K | 0.5 µg/mL
C[C@@H](O)[C@H]1C(=O)N2C(C(=O)O)=C(SCCN=CN)C[C@H]12 | CIPT 140310002 | 10 µg/mL
NC(=S)c1ccnc(SCc2cccc(Cl)c2)c1 | MY330/88 | 31 µM
O=c1nc(SCc2cccc(Br)c2)c2[nH]cnc2[nH]1 | NJ211 | >12.8 µg/mL
CC(=O)Nc1ccc(/C(C)=N\NC(N)=S)cc1 | 101 | 0.25 µg/mL

2 of the rows above, restated:

SMILES,strain,value
Cc1ccc(Sc2ccncc2)cc1,NJ211,>12.8 µg/mL
O[C@@H](c1cc2ccc(C(F)(F)F)cc2c2cc(C(F)(F)F)ccc12)[C@@H]1CCCCN1,101 (clarithromycin-resistant),2 µg/mL

a–b is a range or a potency band.